Measured values from several laboratories, pooled; numbers as filed in NIAID ChemDB.

All rows: tests in culture; species: Plasmodium falciparum

ECn is the concentration giving n% inhibition of infection, replication or growth.

| smiles | strain | cells | read by | mutations | read-out | value |
|---|---|---|---|---|---|---|
| CN1CCN(C(=O)n2cc(-c3ccnc(N)n3)c3cc(Br)ccc32)CC1 | W2 | - | LDH | - | EC50 | >14.49 µM |
| CC1CC2CCCC3CC(CCc4cccc(Cl)c4)N=C(N1)N32 | D6 | - | LDH | - | EC50 | 2.41 µM |
| NC1=Nc2ccc(Cl)cc2C1(O)c1ccc(S(N)(=O)=O)cc1 | Dd2 | - | - | - | EC50 | >5 µM |
| Cc1ccc(C(C)C)cc1.NC(=S)N/N=C/c1ccc(Cl)cc1.[Cl][Ru+] | NF54 | - | LDH | - | EC50 | 2.9 µM |
| COC(=O)C1=C(C)N(Cc2cccc(C(F)(F)F)c2)C(=NCc2cccc(C(F)(F)F)c2)NC1c1cccc(Cl)c1 | 7G8 | - | SYBR Green / fluorescence | - | EC50 | 2.8 µM |
| Cc1c(O)c2ccccc2c2c1sc(NC1CCCCC1)[n+]2CCCN1CCOCC1 | D10 | - | hypoxanthine uptake | - | EC50 | 0.33 µM |
| C=C1CC[C@H](Br)[C@@]2(C)CC[C@@H](Br)[C@@](C)(O)CC[C@@H](C(C)(C)Br)OC(=O)c3ccc(O)c(c3)C[C@H]12 | 3D7 MR4/ATCC | Human O+ erythrocytes | SYBR Green | - | EC50 | 0.3 µM |
| NC(=S)N/N=C/c1ccc2ccccc2c1.[Cl][Ru+].c1ccccc1 | NF54 | - | LDH | - | EC50 | 6.5 µM |
| CCN(CC)CCCC(C)Nc1ccnc2cc(Cl)ccc12 | HB3 | Red blood cells | SYBR Green | - | EC50 | 0.009 µg/mL |
| CCN(CC)CCCC(C)Nc1ccnc2cc(Cl)ccc12 | 3D7 | - | absorbance | - | EC50 | 0.013 µM |
| C=C1C[C@@H]2/C=C(\CO)CC/C=C(\C)C[C@H](OC(=O)C(=C)CO)[C@H]2C1=C | Dd2 | Red blood cells | SYBR Green | - | EC50 | 0.807 µg/mL |
| CCN(CC)CCCC(C)Nc1ccnc2cc(Cl)ccc12 | W2 | Human dermal fibroblasts | MTT | CQ-resistant | EC50 | 0.2 µg/mL |
| COc1cccc2[nH]c(-c3ccc(Cc4ccc(OC(F)(F)F)cc4)cc3)c(C)c(=O)c12 | 3D7 | - | - | - | EC50 | 0.465 µM |
| NC(=O)C(CCCC[NH3+])NC(=O)CCCCCCCCCCCNC(=O)C(N)CCCC[NH3+] | FCR3 | - | hypoxanthine uptake | - | EC50 | 99 µM |
| CN(Cc1ccccc1)Cc1ccc(CNc2ccnc3cc(Cl)ccc23)cc1 | K1 | - | - | - | EC50 | 0.026 µM |
| CCCCCCCCCCCC(=O)NC(CCCC[NH3+])C(=O)NCCCCCCCC(=O)NC(CCCC[NH3+])C(=O)NCCCCCCCC(=O)NC(CCCC[NH3+])C(=O)NCCCCCCCC(=O)NC(CCCC[NH3+])C(=O)NCCCCCCCC(=O)NC(CCCC[NH3+])C(=O)NCCCCCCCC(=O)NC(CCCC[NH3+])C(N)=O | FCR3 | - | hypoxanthine uptake | - | EC50 | 5.6 µM |
| Cn1nc(C(F)(F)F)c(-c2ccc(Br)cc2)c1NC(=O)Nc1ccc(F)cc1F | GNF-Pf4492R-1 | - | SYBR Green / fluorescence | GNF-Pf4492-resistant A211T | EC50 | 1.17 µM |
| c1ccc(CC[C@@H]2C[C@@H]3CC[C@@H]4C[C@H](CCc5ccccc5)NC(=N2)N43)cc1 | W2 | - | LDH | - | EC50 | 8.04 µM |
| O=C1c2ccccc2NC(c2ccc(Cl)cc2)N1C1CC1 | 3D7 | - | luciferase | - | EC50 | >20 µM |
| C[C@H]1Cc2c([nH]c3cc(Cl)c(F)cc23)[C@@]2(N1)C(=O)Nc1ccc(Cl)cc12 | GNF-Pf4492R-3 | - | SYBR Green / fluorescence | GNF-Pf4492-resistant A187V | EC50 | 0.00239 µM |
| C=C1CC[C@H](Br)[C@@]2(C)CC[C@@H]3O[C@@]3(C)CC[C@@H](C(C)(C)O)OC(=O)c3ccc(O)c(c3)C[C@H]12 | 3D7 MR4/ATCC | Human O+ erythrocytes | SYBR Green | - | EC50 | 18 µM |
| Cc1cccc(CCC2CC3CCCC4CC(C)NC(=N2)N34)c1 | D6 | - | LDH | - | EC50 | 5.78 µM |
| NC1=Nc2cccc(Br)c2C1(O)Cc1ccccc1 | Dd2 | - | - | - | EC50 | >5 µM |
| CC(C)OC(C)C | W2 | Human dermal fibroblasts | MTT | CQ-resistant | EC50 | 9.5 µg/mL |
| C=C1CC[C@H](Br)[C@@]2(C)CCC(Br)[C@@](C)(O)CCC(Br)C(C)(C)OC(=O)c3ccc(O)c(c3)C[C@H]12 | 3D7 MR4/ATCC | Human O+ erythrocytes | SYBR Green | - | EC50 | 0.9 µM |
| NC(=S)N/N=C/c1ccccc1 | Dd2 | - | LDH | - | EC50 | >10 µg/mL |
| CC1CC2CCC3CC(CCc4ccccc4)N=C(N1)N32 | D6 | - | LDH | - | EC50 | 7.62 µM |
| COc1cc(C2=NCCN2)ccc1OCCCCOc1ccc(C2=NCCN2)cc1OC | W2 | - | hypoxanthine uptake | - | EC50 | 0.387 µM |
| Cc1c(O)c2ccccc2c2c1sc(NC1CCCCC1)[n+]2CCCN1CCN(C)CC1 | Dd2 | - | hypoxanthine uptake | - | EC50 | 0.17 µM |
| COc1cc2c(cc1OC)[C@H]1O[C@](CCCCN3C(=O)c4ccccc4C3=O)(C2)OC2=C1C(=O)CC(C)(C)C2 | CP250 | - | SYBR Green / fluorescence | - | EC50 | 8.7 µM |
| Cc1cccc(CC[C@H]2C[C@H]3CC[C@H]4C[C@@H](CCc5cccc(C)c5)NC(=N2)N34)c1 | W2 | - | LDH | - | EC50 | 4.98 µM |
| CCN(CC)CCN1C(=O)c2ccccc2NC1c1ccc(Cl)cc1Cl | 3D7 | - | luciferase | - | EC50 | >20 µM |
| CN(Cc1ccc(Cl)cc1)Cc1ccccc1CNc1ccnc2cc(Cl)ccc12 | D10 | - | - | - | EC50 | >1 µM |
| C=CCC[C@@H]1C[C@@H]2CC[C@@H]3C[C@H](CCC=C)NC(=N1)N32 | D6 | - | LDH | - | EC50 | 10.62 µM |
| NC1=Nc2ccc(Cl)cc2C1(O)C1CC1 | 3D7 | - | - | - | EC50 | 0.104 µM |
| Cc1c(-c2ccc(Cc3ccc(OC(F)(F)F)cc3)cc2)[nH]c2ccc(C(F)(F)F)cc2c1=O | 3D7 | - | - | - | EC50 | 0.212 µM |
| C[C@H]1Cc2c([nH]c3cc(F)c(F)cc23)[C@@]2(N1)C(=O)Nc1ccc(Cl)cc12 | GNF-Pf4492R-3 | - | SYBR Green / fluorescence | GNF-Pf4492-resistant A187V | EC50 | 0.00288 µM |
| CC(=O)O[C@H]1CC2C(C3CC[C@H](C(C)CCCN(CCCNc4ccnc5cc(Cl)ccc45)CCCC(C)[C@H]4CCC5C6C(C[C@H](OC(C)=O)[C@@]54C)[C@@]4(C)CC[C@@H](NC(=O)OC(C)(C)C)C[C@H]4C[C@H]6OC(C)=O)[C@]31C)[C@H](OC(C)=O)C[C@@H]1C[C@H](NC(=O)OC(C)(C)C)CC[C@]21C | TM91C235 | - | SYBR Green | - | EC50 | 0.369 µM |
| O=Cc1c(O)cc2c(c1O)C(=O)c1ccccc1C2=O | 3D7 | - | - | - | EC50 | 72.46 µM |
| NC(=S)N/N=C/c1ccc(Cl)cc1 | NF54 | - | LDH | - | EC50 | >10 µg/mL |
| NCCCCCCCCCCCC(=O)NC(CCCC[NH3+])C(=O)NCCCCCCCCCCCC(=O)NC(CCCC[NH3+])C(N)=O | FCR3 | - | hypoxanthine uptake | - | EC50 | 21 µM |
| CC(=O)c1cccc(C2(O)C(N)=Nc3ccc(Cl)cc32)c1 | 3D7 | - | - | - | EC50 | 0.529 µM |
| COc1ccc2c(=O)c(C)c(-c3ccc(Cc4ccc(OC(F)(F)F)cc4)cc3)[nH]c2c1 | 3D7 | - | - | - | EC50 | 0.381 µM |
| c1ccc(CNC23OC4C5C2C2C5C56CC25C3C46)cc1 | D10 | - | LDH / absorbance | - | EC50 | >2 µM |
| CCN1C(=NCc2cccc(Cl)c2)N[C@H](c2cccc(C(F)(F)F)c2)C(C(=O)OC)=C1C | GB4 | - | SYBR Green / fluorescence | - | EC50 | 0.2 µM |
| NCCNc1ccnc2cc(Cl)ccc12 | D10 | - | LDH | - | EC50 | 1.37 µM |
| CCN(CC)CCN1C(=O)c2ccccc2NC1c1ccc(C)cc1 | 3D7 | - | luciferase | - | EC50 | 1.62 µM |
| NC1=Nc2ccc(Cl)cc2[C@@]1(O)c1ccccc1 | 3D7 | - | - | - | EC50 | 0.665 µM |
| COC(=O)C1=C(C(=O)OC)C2N(Cc3ccccc3)c3ccccc3[C@@]23C[C@@H](C(=O)OC)N(S(=O)(=O)c2ccc(Br)cc2)C3=N1 | 7G8 GB4 | - | SYBR Green / fluorescence | - | EC50 | 2.5 µM |
| Cc1c(-c2ccc(-c3ccc(OC(C)(C)C)cc3)nc2)[nH]c2ccccc2c1=O | 3D7 | - | SYBR Green | - | EC50 | 0.054 µM |
| CCC[C@H]1O[C@@H]2CC(=O)O[C@@H]2C2=C1C(=O)c1c(O)cccc1C2=O | 7G8 | - | SYBR Green | - | EC50 | 0.8 µM |
| COc1ccccc1C1(O)C(N)=Nc2ccc(Cl)cc21 | 3D7 | - | - | - | EC50 | 0.024 µM |
| c1cc(C2=NCCN2)ccc1OCCCCCOc1ccc(C2=NCCN2)cc1 | D6 | - | hypoxanthine uptake | - | EC50 | 0.072 µM |
| CCOC(=O)C1=C(C(=O)OCC)C2N(Cc3ccccc3C(F)(F)F)c3ccccc3[C@@]23C[C@@H](C(=O)OC)N(S(=O)(=O)c2c(C)noc2C)C3=N1 | CP250 | - | SYBR Green / fluorescence | - | EC50 | 0.6 µM |
| Cc1c(O)c2ccccc2c2nc(NCCCN3CCOCC3)sc12 | D10 | - | hypoxanthine uptake | - | EC50 | 0.6 µM |
| Cc1ccccc1CC1(O)C(N)=Nc2ccc(Cl)cc21 | Dd2 | - | - | - | EC50 | 0.139 µM |
| CN[C@@H](CC1=c2c(O)c3c(c(O)c2N=C1)=NC=CS3(=O)=O)C(=O)O | Dd2 | - | - | - | MIC | 0.171 µM |
| CC1CC2CCCC3CC(CCc4ccccc4)N=C(N1)N32 | W2 | - | LDH | - | EC50 | 12.45 µM |
| COCC1(C)C2CC2[C@@]2(C)CC[C@@H](Br)[C@@](C)(O)CC[C@@H](C(C)(C)Br)OC(=O)c3ccc(O)c(c3)CC12 | 3D7 MR4/ATCC | Human O+ erythrocytes | SYBR Green | - | EC50 | 2.7 µM |
| CCN(CC)CCN1C(=O)c2ccccc2NC1c1ccc(Cl)cc1 | 3D7 | - | luciferase | - | EC50 | 3.92 µM |
| COc1cc2c(NC3CCN(C)CC3)nc(N3CCCN(C)CC3)nc2cc1OCc1ccccc1 | 7G8 | - | fluorescence | - | EC50 | 0.049 µM |
| COc1cc(C(=N)N)ccc1OCCCOc1ccc(C(=N)N)cc1OC | D6 | - | hypoxanthine uptake | - | EC50 | 0.197 µM |
| O=c1[nH]c(-c2c[nH]c3ccc(I)cc23)nc2ccccc12 | W2 | - | LDH | - | EC50 | >14.49 µM |
| COc1ccc2c(c1O)C(=O)c1ccc(C)cc1C2=O | 3D7 | - | - | - | EC50 | >37 µM |
| CCCCCCCCCCCC(=O)NC(CCCC[NH3+])C(=O)NCCCCCCCCCCCC(=O)NC(CCCC[NH3+])C(N)=O | FCR3 | - | hypoxanthine uptake | - | EC50 | 1.5 µM |
| Fc1ccc(CC[C@@H]2C[C@@H]3CC[C@@H]4C[C@H](CCc5ccc(F)cc5)NC(=N2)N43)cc1 | W2 | - | LDH | - | EC50 | 7.33 µM |
| COCCn1cc(-c2ccnc(N)n2)c2cc(Br)ccc21 | W2 | - | LDH | - | EC50 | >14.49 µM |
| NC1=Nc2ccc(Cl)cc2C1(O)c1ccccc1 | 3D7 | - | - | - | EC50 | 0.216 µM |
| Cc1cc2c(cc1O)C(=O)c1ccccc1C2=O | 3D7 | - | - | - | EC50 | 0.34 µM |
| COc1ccc(C2(O)C(N)=Nc3ccc(F)cc32)cc1 | 3D7 | - | - | - | EC50 | 0.085 µM |
| COc1ccc([C@]23Cc4cc(C#N)ccc4[C@@H](O2)c2c(cc(-c4ccccc4)oc2=O)O3)cc1 | 7G8 GB4 | - | SYBR Green / fluorescence | - | EC50 | 1.7 µM |
| N=C(N)c1ccc(OCCCOc2ccc(C(=N)N)cc2N)c(N)c1 | D6 | - | hypoxanthine uptake | - | EC50 | 0.111 µM |

10 of the rows above, restated:

smiles,strain,cells,read by,mutations,read-out,value
CC1CC2CCC3CC(CCc4ccccc4)N=C(N1)N32,D6,-,LDH,-,EC50,7.62 µM
COc1ccccc1C1(O)C(N)=Nc2ccc(Cl)cc21,3D7,-,-,-,EC50,0.024 µM
CCCCCCCCCCCC(=O)NC(CCCC[NH3+])C(=O)NCCCCCCCCCCCC(=O)NC(CCCC[NH3+])C(N)=O,FCR3,-,hypoxanthine uptake,-,EC50,1.5 µM
Cc1ccc(C(C)C)cc1.NC(=S)N/N=C/c1ccc(Cl)cc1.[Cl][Ru+],NF54,-,LDH,-,EC50,2.9 µM
NC(=S)N/N=C/c1ccc2ccccc2c1.[Cl][Ru+].c1ccccc1,NF54,-,LDH,-,EC50,6.5 µM
N=C(N)c1ccc(OCCCOc2ccc(C(=N)N)cc2N)c(N)c1,D6,-,hypoxanthine uptake,-,EC50,0.111 µM
COc1cc2c(NC3CCN(C)CC3)nc(N3CCCN(C)CC3)nc2cc1OCc1ccccc1,7G8,-,fluorescence,-,EC50,0.049 µM
COCC1(C)C2CC2[C@@]2(C)CC[C@@H](Br)[C@@](C)(O)CC[C@@H](C(C)(C)Br)OC(=O)c3ccc(O)c(c3)CC12,3D7 MR4/ATCC,Human O+ erythrocytes,SYBR Green,-,EC50,2.7 µM
NC1=Nc2ccc(Cl)cc2C1(O)c1ccc(S(N)(=O)=O)cc1,Dd2,-,-,-,EC50,>5 µM
COCCn1cc(-c2ccnc(N)n2)c2cc(Br)ccc21,W2,-,LDH,-,EC50,>14.49 µM

Lines come from different laboratories, so protocols vary. An empty or dashed field is not shown.